Anti-infective test results gathered from many reports (values: NIAID ChemDB through PubChem).

All rows: tests in culture; species: Parainfluenza virus; cells: VERO; read-out: EC50

Blank or dashed fields: not listed here. Neighbouring rows are from separate reports. ECn is the concentration giving n% inhibition of infection, replication or growth.

structure | strain or isolate | read by | result
OC[C@H]1O[C@@H](c2cncc(Br)c2)[C@@H](O)[C@H]1O | TYPE 3 | cytopathic effect | ≥100 µg/mL
OC[C@H]1O[C@@H](c2cc(Cl)c(F)cc2F)C[C@@H]1O | TYPE 3 | cytopathic effect | >80 µg/mL
CC1(CO)CCC(Cn2nnc3c(=O)[nH]cnc32)C1(C)C | TYPE 3 | cytopathic effect | >400 µg/mL
NC1CSCCN2CCc3c([nH]c4ccccc34)[C@H]12 | TYPE 3 | cytopathic effect | 7 µg/mL
CC1(CO)CCC(Cn2ccc(=O)[nH]c2=O)C1(C)C | TYPE 3 | cytopathic effect | >400 µg/mL
CC(Sc1ncnc2c1cnn2CCCCO)C(N)=O | TYPE 3 | cytopathic effect | >400 µg/mL
C=C(N=CC)c1nc(-c2ccc(OC)cc2)n([C@@H]2O[C@H](CO)[C@@H](O)[C@H]2O)n1 | TYPE 3 | cytopathic effect | >100 µg/mL
NC(=O)c1cncc([C@@H]2O[C@H](CO)[C@@H](O)[C@@H]2O)c1 | TYPE 3 | cytopathic effect | ≥100 µg/mL
Nc1ncnc2c1ncn2[C@@H]1C=C(CCl)[C@@H](O)[C@H]1O | TYPE 3 | cytopathic effect | 7 µg/mL
Cc1cn([C@@H]2OC[C@H](CO)[C@H]2N=[N+]=[N-])c(=O)[nH]c1=O | TYPE 3 | cytopathic effect | >80 µg/mL
COC(=O)[C@]1(C)CCC[C@]2(C)c3ccc4[nH]cnc4c3CCC12 | TYPE 3 | plaque count | >4 µg/mL
CCC(Sc1ncnc2c1cnn2COCC(O)CO)C(N)=O | TYPE 3 | cytopathic effect | >400 µg/mL
CC=NC(=N)c1nc(-c2ccc(C)cc2)n(Cc2ccccc2)n1 | TYPE 3 | cytopathic effect | >10 µg/mL
O=C1C=CN(COCCO)S(=O)(=O)N1COCCO | TYPE 3 | - | >400 µg/mL
Nc1nc2c(ccn2[C@H]2CO[C@@H](CO)C2)c(=O)[nH]1 | TYPE 6 | cytopathic effect | 150 µg/mL
COC(=O)[C@]1(C)CCC[C@]2(C)c3cc4cc[nH]c4cc3CCC12 | TYPE 3 | plaque count | >4 µg/mL
Nc1ncnc2c1ncn2[C@H]1OC[C@@H](CO)C1O | TYPE 3 | cytopathic effect | >80 µg/mL
C=CCc1nc(C)n2c(=O)[nH]c(NC(C)=O)nc12 | TYPE 3 | cytopathic effect | >200 µg/mL
Nc1nc(Cl)c2ccn([C@H]3CO[C@@H](CO)C3)c2n1 | TYPE 7 | cytopathic effect | >200 µg/mL
CC1(CO)CCC(Cc2nc3ncnc(N)c3[nH]2)C1(C)C | TYPE 3 | cytopathic effect | >10 µg/mL
OC[C@H]1O[C@@H](c2cc(/C=C/Br)c(F)cc2F)C[C@@H]1O | TYPE 3 | cytopathic effect | >16 µg/mL
CCOC(=O)C1=CN(COCCO)S(=O)(=O)NC1=O | TYPE 3 | - | >400 µg/mL
Nc1ccn([C@@H]2OC[C@H](CO)[C@H]2O)c(=O)n1 | TYPE 3 | cytopathic effect | >80 µg/mL
CC(=O)OCCOCN1C(N)=CC(N)=NS1(=O)=O | TYPE 3 | - | >400 µg/mL
NC1CSCON2CCc3c([nH]c4ccccc34)[C@H]12 | TYPE 3 | cytopathic effect | 0.2 µg/mL
Nc1nc2c(ncn2[C@H]2C[C@H](O)[C@@H](COP(=O)(O)C(=O)O)O2)c(=O)[nH]1 | TYPE 3 | cytopathic effect | 2800 µM
NC(=S)c1cncc([C@H]2O[C@H](CO)[C@@H](O)[C@@H]2O)c1 | TYPE 3 | cytopathic effect | ≥100 µg/mL
Cc1ccn2c(C3OCCS3)cnc2c1 | TYPE 3 | - | >1000 µM
Nc1ccn(C(CF)CCCO)c(=O)n1 | TYPE 3 | cytopathic effect | >400 µg/mL
COC(=O)[C@]1(C)CCC[C@]2(C)c3ccc4nc(-c5ccccc5)c(-c5ccccc5)nc4c3CCC12 | TYPE 3 | plaque count | >4 µg/mL
N#Cc1cncc([C@@H]2O[C@H](CO)[C@H](O)[C@@H]2O)c1 | TYPE 3 | cytopathic effect | ≥100 µg/mL
OC[C@H]1CC(n2cnc3c(NC4CC4)ncnc32)C[C@@H]1CO | TYPE 3 | - | >100 µg/mL
NC1CCCON2CCc3c([nH]c4ccccc34)[C@H]12 | TYPE 3 | cytopathic effect | 4 µg/mL
C=CCc1nc(C)n2c(=O)[nH]c(=S)[nH]c12 | TYPE 3 | cytopathic effect | >200 µg/mL
Cc1cccn2c(C3SCCS3)cnc12 | TYPE 3 | - | >1000 µM
O=c1[nH]c(=O)n(C2C[C@H](CO)[C@@H](CO)C2)cc1I | TYPE 3 | - | >100 µg/mL
OC[C@H]1O[C@H](c2cncc(Br)c2)[C@@H](O)[C@@H]1O | TYPE 3 | cytopathic effect | ≥100 µg/mL
Cc1cn(CCCC(O)CF)c(=O)[nH]c1=O | TYPE 3 | cytopathic effect | >400 µg/mL
Cc1cccn2c(C3OCCS3)cnc12 | TYPE 3 | - | >1000 µM
Nc1ncnc2c1ncn2C1CC(COP(=O)(O)O)[C@@H](O)[C@H]1O | TYPE 1 | cytopathic effect | 2 µg/mL
Nc1ncnc2c1ncn2[C@@H]1C=C(CO)[C@@H](O)[C@H]1O | TYPE 3 | cytopathic effect | 0.4 µg/mL
NC(=O)c1cncc([C@H]2O[C@H](CO)[C@H](O)[C@@H]2O)c1 | TYPE 3 | cytopathic effect | ≥100 µg/mL
CC1=CC(=O)N(c2ccccc2)S(=O)(=O)N1COCCO | TYPE 3 | - | >400 µg/mL
CCOC(=O)c1cc(C#N)c2[nH]c3ccccc3n2c1=O | GREER (TYPE 2) | plaque count | 150 µg/mL
COC(=O)Nc1nc2c3c(ccc2[nH]1)[C@@]1(C)CCC[C@@](C)(C(=O)OC)C1CC3 | TYPE 3 | plaque count | >4 µg/mL
CC=NC(=N)c1nc(-c2ccc(C)cc2)n(C/C=C/c2ccccc2)n1 | TYPE 3 | cytopathic effect | >10 µg/mL
O=c1[nH]cnc2c1ncn2C1C[C@H](CO)[C@@H](CO)C1 | TYPE 3 | - | >100 µg/mL
N#Cc1cc(C#N)c2[nH]c3ccccc3n2c1=O | TYPE 3 | plaque count | 5.2 µg/mL
CCOC(=O)C1=CN(COCCOC(C)=O)S(=O)(=O)N=C1N | TYPE 3 | - | >400 µg/mL
C=C(N=CC)c1nc(-c2cccc(C)c2)n(C2O[C@H](CO)[C@@H](O)[C@H](O)[C@H]2O)n1 | TYPE 3 | cytopathic effect | >100 µg/mL
Cc1nc(C(C)C)c2[nH]c(=S)[nH]c(=O)n12 | TYPE 3 | cytopathic effect | >200 µg/mL
Nc1ncnc2c1ccn2[C@@H]1C[C@H](O)[C@@H](O)[C@H]1O | TYPE 3 | - | >0.07 µg/mL
N#Cc1cc(NC(=O)c2ccccc2)c(=O)n2c1[nH]c1ccccc12 | C243 (TYPE 3) | plaque count | 0.3 µg/mL
Cc1cccn2c(C3OCCO3)cnc12 | TYPE 3 | - | >1000 µM
OC[C@H]1O[C@@H](c2cncc(Br)c2)[C@@H](O)[C@@H]1O | TYPE 3 | cytopathic effect | ≥100 µg/mL
CC=NC(=N)c1nc(-c2ccc(OC)cc2)n(COCCO)n1 | TYPE 3 | cytopathic effect | 100 µg/mL
NC(=O)CSc1ncnc2c1cnn2CCCCO | TYPE 3 | cytopathic effect | >400 µg/mL
Nc1ncnc2c1ncn2[C@@H]1C[C@H](COP(=O)(O)O)[C@@H](O)[C@H]1O | TYPE 1 | cytopathic effect | >200 µg/mL